Pooled drug test results. Numbers come from NIAID ChemDB, via PubChem.

All rows: tests in culture; species: HIV-1

Blank or dashed fields: not listed here.

SMILES	changes	cells	endpoint	strain or isolate	conditions	read by	result
Cc1cn([C@H]2C[C@H](N=[N+]=[N-])[C@@H](CO)O2)c(=O)[nH]c1=O	-	MT-2	EC50	IIIB	-	p24 / ELISA	0.00726 µM
CC(C)(C)NC(=O)[C@@H]1C[C@@H]2CCCC[C@@H]2CN1C[C@@H](O)[C@H](Cc1ccccc1)NC(=O)[C@H](CC(N)=O)NC(=O)c1ccc2ccccc2n1	-	PBL	EC99	-	-	-	0.06 µM
CC(C)c1nc(SCC(N)=O)n(Cc2ccncc2)c1Cc1ccccc1	-	MT-4	EC50	IIIB	-	cytopathic effect / MTT	30.57 µM
CN(C)c1ccc(NC2=NS(=O)(=O)NC(Cc3ccccc3)=C2)cc1	-	MT-4	EC50	IIIB	-	MTT	>256 µM
Cc1cn([C@H]2C[C@H](N=[N+]=[N-])[C@@H](CO)O2)c(=O)[nH]c1=O	RT-T215Y K219Q	PBMC	EC50	-	-	p24	0.017 µM
CC1(C)[C@H]2CC[C@@]34CC[C@@H](C[C@H]3[C@]2(C)CC[C@@H]1O)[C@](O)(CO)C4	-	MT-4	EC50	NL4-3	-	luciferase	>20 µM
O=C1N(Cc2cccc(Br)c2)[C@H]2[C@H](CS(=O)(=O)[C@H]2CCCCCO)N1Cc1cccc(Br)c1	-	MT-2	EC50	RF	-	-	<80 µM
Cc1c(C(C)CC2CCCCC2)nc(SCC(=O)c2ccc(F)cc2)[nH]c1=O	-	MT-4	EC50	IIIB	-	MTT	1.01 µM
CC1(C)C(=O)CC[C@]2(C)C1CC[C@@]13C[C@@H](CCC12)[C@](O)(CO)C3	-	MT-4	EC50	NL4-3	-	luciferase	>20 µM
CCOCn1c(SCC(N)=O)nc(CC)c1Cc1cc(C)cc(C)c1	-	MT-4	EC50	IIIB	-	cytopathic effect / MTT	1.33 µM
C=CCOC(=O)CCCCCCC	-	CEM	EC50	-	-	syncytia	30 µM
Cc1cn([C@H]2C[C@H](N=[N+]=[N-])[C@@H](CO)O2)c(=O)[nH]c1=O	-	C8166	EC50	IIIB	-	p24	0.005 µM
Cc1c(CCC2CCCCC2)nc(SCC(=O)c2ccccc2)[nH]c1=O	-	MT-4	EC50	IIIB	-	MTT	1.72 µM
C=C(C)[C@]12C[C@@H](COC(=O)c3ccccc3)[C@@]34O[C@]5(O[C@@H]1[C@@H]3[C@@H]1O[C@]1(CO)[C@@H](O)[C@@]1(O)[C@H]4[C@H]([C@H](C)[C@@H]1OC(=O)c1ccccc1)[C@H](C)CCCCCC[C@H]5O)O2	-	PBMC	EC50	BaL	-	-	0.000042 µM
CC(C)[C@H](NC(=O)c1ccc2ccccc2n1)C(=O)N[C@@H](Cc1ccccc1)[C@H](O)CN1CC[C@@H](SCc2cccnc2)C[C@H]1C(=O)NC(C)(C)C	PR-V32I A71V	C8166	EC50	BILA1906-resistant (PR V32I A71V)	-	p24	0.003 µM
Cc1nc(C)c(Cn2cnc(C(F)(F)C(F)F)c(Oc3cc(C(F)F)cc(C#N)c3Cl)c2=O)c(=O)[nH]1	-	PBMC	EC50	-	pseudotyped	GFP	0.181 µM
COc1ccc(C(=O)CSc2nc(C(C)C3CCCCC3)c(C)c(=O)[nH]2)cc1	-	MT-4	EC50	IIIB	-	MTT	0.06 µM
CCOCn1c(SCC(N)=O)nc(C(C)C)c1CC1CCCCC1	-	MT-4	EC50	IIIB	-	cytopathic effect / MTT	2.11 µM
CC(CC1CCCCC1)c1cc(=O)[nH]c(SCC(=O)c2ccccc2)n1	-	MT-4	EC50	IIIB	-	MTT	9.58 µM
Cc1ccnc2c1NC(=O)c1cccnc1N2C1CC1	-	MT-4	EC50	IIIB	-	MTT	0.24 µM
O=C(CCCC[C@@H]1SC[C@H]2[C@@H]1N(Cc1cccc(Br)c1)C(=O)N2Cc1cccc(Br)c1)OCc1cccc(Br)c1	-	MT-2	EC50	RF	-	-	<45 µM
CC(C)CN(C[C@@H](O)[C@H](Cc1ccccc1)NC(=O)[C@H](CC(N)=O)NC(=O)c1ccc2ccccc2n1)C(=O)NC(C)(C)C	PR-M46I V82T	MT-4	EC95	NL4-3	-	p24	0.4 µM
O=c1[nH]cnc2c1ncn2[C@H]1CC[C@@H](CO)O1	RT-T215Y K219Q	PBMC	EC50	-	-	p24	1.1 µM
CC1=C[C@H]([C@H](O)[C@H](C)[C@@H]2C[C@@H](O)[C@@]3(O)[C@H]4CC[C@@H]5C(C)(C)O[C@H]6CC(=O)O[C@]65C[C@]4(O)CC[C@@]23C)OC1=O	-	C8166	EC50	IIIB	-	syncytia	7.71 µg/mL
N#Cc1ccc(NC2=NS(=O)(=O)NC(Cc3cccc4ccccc34)=C2)cc1	-	MT-4	EC50	IIIB	-	MTT	>250 µM
COc1ccc(C(=O)CSc2nc(CCC3CCCCC3)cc(=O)[nH]2)cc1	-	MT-4	EC50	IIIB	-	MTT	35.7 µM
Cc1nc(C)c(Cn2cnc(C(F)(F)C(F)(F)F)c(Oc3cccc(C#N)c3Cl)c2=O)c(=O)[nH]1	-	PBMC	EC50	-	pseudotyped	GFP	0.45 µM
CCOCn1c(SCC(N)=O)nc(CC)c1CC1CCCCC1	-	MT-4	EC50	IIIB	-	cytopathic effect / MTT	22.85 µM
Cc1cn([C@H]2C[C@H](N=[N+]=[N-])[C@@H](CO)O2)c(=O)[nH]c1=O	-	MT-4	EC50	IIIB	-	MTT	0.0019 µM
O=C1N(Cc2ccc(CO)cc2)[C@H](Cc2ccccc2)[C@H](O)[C@@H](O)[C@@H](Cc2ccccc2)N1Cc1ccc(CO)cc1	PR-L10R M46I V82T	MT-4	EC50	NL4-3	-	p24	<0.2 µM
Cc1c(C(C)CC2CCCCC2)nc(SCC(=O)c2ccccc2)[nH]c1=O	-	MT-4	EC50	IIIB	-	MTT	0.35 µM
C=CCOC(C)=O	-	CEM	EC50	-	-	syncytia	30 µM
Cc1c(O)cccc1C(=O)N[C@@H](CSc1ccccc1)[C@H](O)CN1C[C@H]2CCCC[C@H]2C[C@H]1C(=O)NC(C)(C)CO	-	MT-2	EC50	IIIB	-	cytopathic effect / MTT	0.0856 µM
COC(=O)CCCC[C@H]1[C@@H]2[C@H](CS1(=O)=O)N(Cc1cccc(Br)c1)C(=O)N2Cc1cccc(Br)c1	-	MT-2	EC90	RF	-	-	80 µM
CC(C)Nc1cccnc1N1CCN(C(=O)c2cc3cc(NS(C)(=O)=O)ccc3[nH]2)CC1	-	MT-4	EC50	IIIB	-	MTT	0.14 µM
C=CCOC(=O)CCCCC	-	CEM	EC50	-	-	syncytia	68 µM
CC(O)c1cccc(CN2C(=O)N(Cc3cccc(C(C)O)c3)[C@H]3CS[C@@H](CCCCCO)[C@H]32)c1	-	MT-2	EC90	RF	-	-	98 µM

Repeating the first 2 entries:

SMILES,changes,cells,endpoint,strain or isolate,conditions,read by,result
Cc1cn([C@H]2C[C@H](N=[N+]=[N-])[C@@H](CO)O2)c(=O)[nH]c1=O,-,MT-2,EC50,IIIB,-,p24 / ELISA,0.00726 µM
CC(C)(C)NC(=O)[C@@H]1C[C@@H]2CCCC[C@@H]2CN1C[C@@H](O)[C@H](Cc1ccccc1)NC(=O)[C@H](CC(N)=O)NC(=O)c1ccc2ccccc2n1,-,PBL,EC99,-,-,-,0.06 µM

ECn: concentration that inhibits the pathogen or its effect by n%. Rows are shuffled and stem from different studies.